Test results from patent publication US7960387B2, “2-(3-phenyl-2-piperazinyl-3,4-dihydroquinazolin-4-yl)acetic acids as antiviral agents, especially against cytomegaloviruses” (Bayer Schering Pharma Aktiengesellschaft, priority 2003, dated 2011).
Counter-ions that a name gives are not always drawn.

System: HCMV
Test: Anti-HCMV cytopathogenicity test
Type: cell-based, human cytomegalovirus
Conditions: selectivity index = CC50 (NHDF)/EC50 (HCMV)
Description: Anti-HCMV (Anti-Human Cytomegalovirus) Cytopathogenicity Tests The test compounds are employed as 50 millimolar (mM) solutions in dimethyl sulphoxide (DMSO). Ganciclovir®, Foscarnet® and Cidofovir® are used as reference compounds. After addition of in each case 2 μl of the 50, 5, 0.5 and 0.05 mM DMSO stock solutions to 98 μl portions of cell culture medium in row […] for duplicate determinations, 1:2 dilutions are carried out with 50 μl portions of medium up to row 11 of the 96-well plate. The wells in rows 1 and 12 each contain 50 μl of medium. In 150 μl of a suspension of 1×10^4 cells (human prepuce fibroblasts [NHDF]) are pipetted into each of the wells (row 1=cell control) and, in rows 2-12, a mixture of HCMV-infected and uninfected NHDF cells (M.O.I.=0.001-0.002), i.e. 1-2 infected cells per 1000 uninfected cells. Row 12 (without substance) serves as virus control. The final test concentrations are 250-0.0005 μM. The plates are incubated at 37° C./5% CO2 for 6 days, i.e. until all the cells are infected in the virus controls (100% cytopathogenic effect [CPE]). The wells are then fixed and stained by adding a mixture of formalin and Giemsa's dye (30 minutes), washed with double-distilled water and dried in a drying oven at 50° C. The plates are then assessed visually using an overhead microscope (Plaque Multiplier from Technomara). The following data can be acquired from the test plates: • CC50 (NHDF)=substance concentration in μM at which no visible cytostatic effects on the cells are evident by comparison with the untreated cell control; • EC50 (HCMV)=substance concentration in μM which inhibits the CPE (cytopathic effect) by 50% compared with the untreated virus control; • SI (selectivity index)=CC50 (NHDF)/EC50 (HCMV).

Row | Compound | SI HCMV
1 | COc1ccc(C)cc1N1C(N2CCN(c3cccc(Cl)c3)CC2)=Nc2ccccc2C1CC(=O)O (stereo not shown) [Example 31, {2-[4-(3-Chlorophenyl)-1-piperazinyl]-3-[2-methoxy-5-methylphenyl]-3,4-dihydro-4-quinazolinyl}acetic acid] | 450
2 | COc1ccc(Cl)cc1N1C(N2CCN(c3ccc(F)cc3)CC2)=Nc2ccccc2C1CC(=O)O (stereo not shown) [Example 29, {2-[4-(4-Fluorophenyl)-1-piperazinyl]-3-[2-methoxy-5-chlorophenyl]-3,4-dihydro-4-quinazolinyl}acetic acid] | 1786
3 | COc1ccc(C(F)(F)F)cc1N1C(N2CCN(c3cccc(Cl)c3)CC2)=Nc2ccccc2C1CC(=O)O (stereo not shown) [Example 26, {2-[4-(3-Chlorophenyl)-1-piperazinyl]-3-[2-methoxy-5-(trifluoromethyl)phenyl]-3,4-dihydro-4-quinazolinyl)acetic acid] | 1650
4 | COc1cccc(N2CCN(C3=Nc4ccccc4C(CC(=O)O)N3c3cc(Cl)ccc3OC)CC2)c1 (stereo not shown) [Example 28, {2-[4-(3-Methoxyphenyl)-1-piperazinyl]-3-[2-methoxy-5-chlorophenyl]-3,4-dihydro-4-quinazolinyl]acetic acid] | 2520
5 | COc1ccc(C)cc1N1C(N2CCN(c3cccc(C)c3)CC2)=Nc2ccccc2C1CC(=O)O (stereo not shown) [Example 30, {2-[4-(3-Methylpheny)-1-piperazinyl]-3-[2-methoxy-5-methylphenyl]-3,4-dihydro-4-quinazolinyl}acetic acid] | 1000
6 | Cc1cc(N2CCN(C3=Nc4ccccc4C(CC(=O)O)N3c3cccc(C(F)(F)F)c3)CC2)ccc1F (stereo not shown) [Example 1, {2-[4-(4-Fluoro-3-methylphenyl)-1-piperazinyl]-3-[3-(trifluoromethyl)phenyl]-3,4-dihydro-4-quinazolinyl}acetic acid] | 630
7 | O=C(O)CC1c2ccccc2N=C(N2CCN(c3cccc(Cl)c3)CC2)N1c1ccc(F)c(Cl)c1 (stereo not shown) [Example 19] | 60
8 | Cc1cc(Cl)ccc1N1C(N2CCN(c3cccc(Cl)c3)CC2)=Nc2ccccc2C1CC(=O)O (stereo not shown) [Example 6, {2-[4-(3-Chlorophenyl)-1-piperazinyl]-3-[4-chloro-2-methylphenyl]-3,4-dihydro-4-quinazolinyl}acetic acid] | 63
9 | COc1ccc(C(F)(F)F)cc1N1C(N2CCN(c3cccc(C)c3)CC2)=Nc2ccccc2C1CC(=O)O (stereo not shown) [Example 27, {2-[4-(3-Methylphenyl)-1-piperazinyl]-3-[2-methoxy-5-(trifluoromethyl)phenyl]-3,4-dihydro-4-quinazolinyl}acetic acid] | 1446
10 | O=C(O)CC1c2ccccc2N=C(N2CCN(c3ccc(F)cc3)CC2)N1c1cc(C(F)(F)F)ccc1F (stereo not shown) [Example 2, {2-[4-(4-Fluorophenyl)-1-piperazinyl]-3-[2-fluoro-5-(trifluoromethyl)phenyl]-3,4-dihydro-4-quinazolinyl}acetic acid hydrochloride] | 650
